Measured values from several laboratories, pooled; numbers as filed in NIAID ChemDB.

Shared fields: tests in culture; species: Mycobacterium tuberculosis

Neighbouring rows are from separate reports. A number after MIC or MFC names an inhibition level or a share of isolates. MIC bound comes from a single tested concentration. Percent inhibition refers to the dose given; in toxicity tests it is the harm to the cells. ECn: concentration that inhibits the pathogen or its effect by n%. An empty or dashed field is not shown.

compound	dose	mutations	read by	strain	measure	conditions	result
O=c1oc2ccc(-c3ccccc3)cc2c(O)c1N=Nc1ccc(F)cc1	6.25 µg/mL		resazurin	H37Rv	inhibition		18%
Cc1ccc(-n2cc(CNC3c4ccccc4-c4ccccc43)nn2)cc1			broth dilution	Specimen 192	MIC99		142 µM
COc1ccc(-c2noc(C3=CC4(CCN(CC5CCCO5)CC4)c4ccccc43)n2)cc1		Spiroindene-resistant	turbidity	TB365	MIC		3 µM
CCCCCCCCN1C(=O)c2cc(Cl)nnc2Oc2ccc3ccccc3c21	12.5 µg/mL		BACTEC	H37Rv	inhibition		38%
O=C(COc1cnccn1)N/N=c1\scc(-c2ccc(F)cc2)n1-c1ccc(Cl)cc1Cl				H37Rv	MIC		11 µg/mL
Oc1ccccc1CNCCCCCCCNCc1ccccc1O				Sensitive strains	MIC		25 µg/mL
CO[C@H]1/C=C/O[C@@]2(C)Oc3c(C)c(O)c4c(O)c(c(/C=N/N5CCN(C/C=C/c6ccccc6)CC5)c(O)c4c3C2=O)NC(=O)/C(C)=C\C=C\[C@H](C)[C@H](O)[C@@H](C)[C@@H](O)[C@@H](C)[C@H](OC(C)=O)[C@@H]1C				29 (rifampin-resistant)	MBC		0.2 µg/mL
CC[C@H]1OC(=O)[C@H](C)[C@@H](O[C@H]2C[C@@](C)(OC)[C@@H](O)[C@H](C)O2)[C@H](C)[C@@H](O[C@@H]2O[C@H](C)C[C@H](N(C)C)[C@H]2O)[C@](C)(OC)C[C@@H](C)C(=O)[C@H](C)[C@@H](O)[C@]1(C)O				Drug-resistant	MIC50		>8 µg/mL
CC(=O)c1c(C)[nH]c(C(=O)N/N=C/c2ccc(N(C)C)cc2)c1C	6.25 µg/mL		resazurin	H37Rv	inhibition		18%
O=[N+]([O-])c1cccnc1N=Nc1c(O)[nH]c2ccccc12			BACTEC	H37Rv	MIC bound		>12.5 µg/mL
CC[C@H]1OC(=O)[C@H](C)[C@@H](O[C@H]2C[C@@](C)(OC)[C@@H](O)[C@H](C)O2)[C@H](C)[C@@H](O[C@@H]2O[C@H](C)C[C@H](N(C)C)[C@H]2O)[C@](C)(O)C[C@@H](C)CN(C)[C@H](C)[C@@H](O)[C@]1(C)O				ATCC 35826	MIC		>8 µg/mL
O=c1oc2ccc3ccccc3c2c(O)c1N=Nc1ccc([N+](=O)[O-])cc1			resazurin	H37Rv	MIC		<6.25 µg/mL
CO[C@H]1/C=C/O[C@@]2(C)Oc3c(C)c(O)c4c(=O)c(c5oc6cc(N7CCN(CC(C)C)CC7)cc(=O)c6nc5c4c3=C2O)NC(=O)/C(C)=C\C=C\[C@H](C)[C@H](O)[C@@H](C)[C@@H](O)[C@@H](C)[C@H](OC(C)=O)[C@@H]1C				3147 (rifampin-sensitive)	MIC		0.003 µg/mL
CC(C)N=c1cc2n(-c3ccc(Cl)cc3)c3ccccc3nc-2cc1Nc1ccc(Cl)cc1			broth dilution / resazurin	MDR11	MIC		1 µg/mL
COc1cccc2c1C(=O)c1c(O)c3c(c(O)c1C2=O)C[C@@](O)(/C(C)=N/NC(=O)c1cccc([N+](=O)[O-])c1)C[C@H]3O[C@H]1CC(N)[C@H](O)[C@H](C)O1				KM-R	MIC		12.5 µg/mL
CCCCCCCCN1C(=O)c2cc(Cl)nnc2Oc2ccc(Cl)cc21	12.5 µg/mL		BACTEC	H37Rv	inhibition		49%
NNC(=O)c1ccncc1			broth dilution	Specimen 192	MIC		0.66 µM
CC(C)(C)c1ccc(CN2CCC3(CC2)C(=O)Nc2ccccc23)cc1			turbidity	H37Rv	MIC		3.1 µM
O=C(COc1cnccn1)N/N=c1\scc(-c2ccc(Cl)cc2)n1-c1ccc(Cl)cc1				H37Rv	MIC		23 µg/mL
O=c1[nH]c2c(Cl)c(Cl)ccc2c(O)c1N=Nc1ccc([N+](=O)[O-])cc1			resazurin	H37Rv	MIC		<6.25 µg/mL
Cc1cc(C)c2ccc(NN=O)nc2n1			BACTEC	H37Rv	MIC bound		>12.5 µg/mL
CO[C@H]1/C=C/O[C@@]2(C)Oc3c(C)c(O)c4c(=O)c(c5oc6cc(N7CCN(CC(C)C)CC7)cc(=O)c6nc5c4c3=C2O)NC(=O)/C(C)=C\C=C\[C@H](C)[C@H](O)[C@@H](C)[C@@H](O)[C@@H](C)[C@H](OC(C)=O)[C@@H]1C				30 isolates	MIC90		2 µg/mL
C[N+]1(Cc2ccccc2)C2CCC1C(=O)N(Cc1ccccc1)C2=O			BACTEC	H37Rv	MIC bound		>12.5 µg/mL
CO[C@H]1/C=C/O[C@@]2(C)Oc3c(C)c(O)c4c(O)c(c5c(c4c3C2=O)NC2(CCN(CC(C)C)CC2)N=5)=NC(=O)/C(C)=C\C=C\[C@H](C)[C@H](O)[C@@H](C)[C@@H](O)[C@@H](C)[C@H](OC(C)=O)[C@@H]1C				CSU26	MIC		≤0.125 µg/mL
C=CCOc1cc(NC(=S)c2sccc2C)ccc1Cl			BACTEC	H37Rv	MIC bound		≤12.5 µg/mL
CCCCCCCCCCCCNCc1ccccc1O				H37Ra	MIC		<25 µg/mL
CC(C)Cn1c(-c2ccc(Cl)cc2Cl)cs/c1=N\NC(=O)COc1cnccn1				H37Rv	MIC		15 µg/mL
Oc1cccc(CNCCCCCNCc2cccc(O)c2)c1				H37Ra	MIC		>25 µg/mL
CCOc1ccc(-n2c(-c3ccc(Cl)cc3)cs/c2=N\NC(=O)COc2cnccn2)cc1				H37Rv	MIC		19 µg/mL
O=C(Oc1ccc(Cl)cc1C(=O)Nc1ccc(Cl)c(Cl)c1)c1cnccn1				multidrug resistant 234/2005	MIC	21 d	0.125 µM
CC[C@@H](CO)NCCN[C@@H](CC)CO		Isoniazid-resistant	resazurin	912253	MIC		1.2 µM
CC[C@H]1OC(=O)[C@H](C)[C@@H](O[C@H]2C[C@@](C)(OC)[C@@H](O)[C@H](C)O2)[C@H](C)[C@@H](O[C@@H]2O[C@H](C)C[C@H](N(C)C)[C@H]2O)[C@](C)(OC)C[C@@H](C)C(=O)[C@H](C)[C@@H](O)[C@]1(C)O				S-5M (susceptible)	MIC		>8 µg/mL
O=C(O)c1cn(C2CC2)c2c(F)c(N3CCSCC3)c(F)cc2c1=O				CSU25	MIC		0.5 µg/mL
CC/C(=N\NC(=O)c1ccncc1)c1ccc(Cl)cc1			resazurin	H37Rv	MIC		0.1 µg/mL
O=C(NC1CCCCC1)N(C(=O)c1cnccn1)C1CCCCC1				331/88	MIC	21 d	500 µM
CO[C@H]1/C=C/O[C@@]2(C)Oc3c(C)c(O)c4c(O)c(c5c(c4c3C2=O)NC2(CCN(CC(C)C)CC2)N=5)=NC(=O)/C(C)=C\C=C\[C@H](C)[C@H](O)[C@@H](C)[C@@H](O)[C@@H](C)[C@H](OC(C)=O)[C@@H]1C				S-5M (susceptible)	MIC		0.05 µg/mL
C/C=C1/C(=O)O[C@]23C=C[C@@H]4C(C(=O)OC)=CO[C@H](O[C@@H]12)[C@@H]43			MTT	H37Rv	MBC		3.6 µg/mL
CC(C)N=c1cc2n(-c3ccc(Cl)cc3)c3ccccc3nc-2cc1Nc1ccc(Cl)cc1			BACTEC	H37Rv	MIC		0.1 µg/mL
CCCCCCCCC=CCCCCCCCCNCc1cccnc1				Clinical isolates MDR	MIC		25 µg/mL
Cc1oc(C)c(-c2ccccc2)c1C(=O)N1CCN(C)CC1	12.5 µg/mL		BACTEC	H37Rv	inhibition		28%
O=S(=O)(Cc1cn(-c2ccc(F)cc2)nn1)C1c2ccccc2-c2ccccc21			broth dilution	Specimen 192	MIC99		123 µM
NNC(=O)c1ccncc1				CSU28	MIC		≤0.125 µg/mL
O=C1C(=O)c2ccccc2C(O)=C1C(C1=C(O)c2ccccc2C(=O)C1=O)c1ccc(Cl)c(Cl)c1			BACTEC	H37Rv	MIC bound		>12.8 µg/mL
CC1CN(c2c(F)cc3c(=O)c(C(=O)O)cn(C4CC4)c3c2F)CCN1				CSU18	MIC		≤0.125 µg/mL
C/C(=C\C(=O)O)C(=O)O			BACTEC	H37Rv	MIC		≥128 µg/mL
Cc1ccc(-c2noc(C3=CC4(CCN(CC5CCCO5)CC4)c4ccccc43)n2)cn1		Drug-resistant	resazurin	Beijing (E-47/94)	MIC		0.39 µM
CCCCCCCCNC(CC(=O)OCC)c1ccccc1				H37Ra	MIC		<25 µg/mL
C1=C(c2nc(-c3cccnc3)no2)c2ccccc2C12CCN(CC1CCCO1)CC2		Isoniazid-resistant	resazurin	912253	MIC		1.56 µM
CCOC(=O)c1nc(C)cnc1N			BACTEC	H37Rv	MIC bound		>12.5 µg/mL
C[C@]1(COc2ccc(N3CCC(Oc4ccc(OC(F)(F)F)cc4)CC3)cc2)Cn2cc([N+](=O)[O-])nc2O1				18 strains (SM-resistant)	MIC90		0.013 µg/mL
NC1CCN(c2c(F)cc3c(=O)c(C(=O)O)cn(C4CC4)c3c2Cl)C1				H37Rv	MBC		0.125 µg/mL
CCCCCN1C(=O)c2cc(Cl)nnc2Oc2cc(C)ccc21	12.5 µg/mL		BACTEC	H37Rv	inhibition		69%
O=C(Oc1ccc(Cl)cc1C(=O)Nc1cccc(C(F)(F)F)c1)c1cnccn1				multidrug resistant 9449/2006	MIC	21 d	2 µM
CCCCCCCCC=CCCCCCCCCNCc1ccncc1				Sensitive strains	MIC		6.25 µg/mL
O=C(Oc1ccc(Br)cc1C(=O)Nc1ccc(C(F)(F)F)cc1)c1cnccn1				multidrug resistant Praha 1	MIC	14 d	0.125 µM
COc1ccc(CSC(=S)Nc2ccc(SC)c(Cl)c2)cc1	128 µg/mL		BACTEC	H37Rv	inhibition		100%
NC1CCN(c2nc3c(cc2F)c(=O)c(C(=O)O)cn3-c2ccc(F)cc2F)C1				MDR	MIC50		>8 µg/mL
CC(C)=CCCC(C)(OC1OC(CO)C(O)C(O)C1O)C1CCC2(C)C1C(O)CC1C3(C)CCC(O)C(C)(C)C3C(OC3OC(CO)C(O)C(O)C3O)CC12C	12.5 µg/mL		BACTEC	H37Rv	inhibition		21%
CCOC(=O)CC(c1cccc([N+](=O)[O-])c1)N1CCCC1				H37Ra	MIC		>25 µg/mL
COc1ccc(-c2cs/c(=N\NC(=O)COc3cnccn3)n2CC(C)C)cc1				H37Rv	MIC		5.8 µg/mL
COC(=O)c1cccc(C)n1	12.5 µg/mL		BACTEC	H37Rv	inhibition		0%
CN[C@@H]1[C@H](O[C@H]2[C@H](O[C@H]3[C@H](O)[C@@H](O)[C@H](N=C(N)N)[C@@H](O)[C@@H]3N=C(N)N)O[C@@H](C)[C@]2(O)C=O)O[C@@H](CO)[C@H](O)[C@H]1O		Isoniazid-resistant	resazurin	912253	MIC		0.5 µM
CCCCCCC(/C=C/c1ccc(Cl)c(Cl)c1)=N\NC(=O)C[n+]1ccccc1.[Cl-]			BACTEC	H37Rv	MIC bound		>12.5 µg/mL
CCCCCN1C(=O)c2ccnnc2Oc2cc(C)ccc21			BACTEC	H37Rv	EC50		>12.5 µg/mL
CC(/C=C/C=C(\C)C(=O)O)=C\C=C\C=C(C)\C=C\C=C(/C)C(=O)O	12.5 µg/mL		BACTEC	H37Rv	inhibition		0%
Clc1cc(Cl)cc(-n2cc(CNC3c4ccccc4-c4ccccc43)nn2)c1			broth dilution	Specimen 192	MIC99		>246 µM
CC(CN1CC(=O)NC(=O)C1)N1CC(=O)NC(=O)C1.[Cl][Pt][Cl]			BACTEC	H37Rv	MIC bound		>12.5 µg/mL
O=C(Oc1cc(Cl)ccc1C(=O)Nc1cccc(Cl)c1)c1cnccn1				H37Rv 331/88	MIC	14 d	2 µM
COC1=C(OC)C(=O)C(N(C)C)=C(CO)C1=O			resazurin	H37Rv	MIC bound		>6.25 µg/mL
CCOC(=O)CC(c1cccc(Cl)c1)N1CCCC1				H37Ra	MIC		>25 µg/mL
CN(C)N=Nc1c(-c2ccc(Cl)cc2)n[nH]c1C(N)=O			BACTEC	H37Rv	MIC bound		>12.5 µg/mL
C[C@@H]1CN(c2c(F)c(N)c3c(=O)c(C(=O)O)cn(C4CC4)c3c2F)C[C@H](C)N1				ATCC 35828	MIC		0.06 µg/mL
O=C(NC(CCS(=O)(=O)n1ccnc1)C(=O)OCc1ccccc1)OCc1ccccc1	12.5 µg/mL		BACTEC	H37Rv	inhibition		2%
CCOc1ccc(NC(=S)NNC(=O)COc2cnccn2)cc1				H37Rv	MIC		85 µg/mL

The first 9 rows once more:

| compound | dose | mutations | read by | strain | measure | conditions | result |
|---|---|---|---|---|---|---|---|
| O=c1oc2ccc(-c3ccccc3)cc2c(O)c1N=Nc1ccc(F)cc1 | 6.25 µg/mL |  | resazurin | H37Rv | inhibition |  | 18% |
| Cc1ccc(-n2cc(CNC3c4ccccc4-c4ccccc43)nn2)cc1 |  |  | broth dilution | Specimen 192 | MIC99 |  | 142 µM |
| COc1ccc(-c2noc(C3=CC4(CCN(CC5CCCO5)CC4)c4ccccc43)n2)cc1 |  | Spiroindene-resistant | turbidity | TB365 | MIC |  | 3 µM |
| CCCCCCCCN1C(=O)c2cc(Cl)nnc2Oc2ccc3ccccc3c21 | 12.5 µg/mL |  | BACTEC | H37Rv | inhibition |  | 38% |
| O=C(COc1cnccn1)N/N=c1\scc(-c2ccc(F)cc2)n1-c1ccc(Cl)cc1Cl |  |  |  | H37Rv | MIC |  | 11 µg/mL |
| Oc1ccccc1CNCCCCCCCNCc1ccccc1O |  |  |  | Sensitive strains | MIC |  | 25 µg/mL |
| CO[C@H]1/C=C/O[C@@]2(C)Oc3c(C)c(O)c4c(O)c(c(/C=N/N5CCN(C/C=C/c6ccccc6)CC5)c(O)c4c3C2=O)NC(=O)/C(C)=C\C=C\[C@H](C)[C@H](O)[C@@H](C)[C@@H](O)[C@@H](C)[C@H](OC(C)=O)[C@@H]1C |  |  |  | 29 (rifampin-resistant) | MBC |  | 0.2 µg/mL |
| CC[C@H]1OC(=O)[C@H](C)[C@@H](O[C@H]2C[C@@](C)(OC)[C@@H](O)[C@H](C)O2)[C@H](C)[C@@H](O[C@@H]2O[C@H](C)C[C@H](N(C)C)[C@H]2O)[C@](C)(OC)C[C@@H](C)C(=O)[C@H](C)[C@@H](O)[C@]1(C)O |  |  |  | Drug-resistant | MIC50 |  | >8 µg/mL |
| CC(=O)c1c(C)[nH]c(C(=O)N/N=C/c2ccc(N(C)C)cc2)c1C | 6.25 µg/mL |  | resazurin | H37Rv | inhibition |  | 18% |